Compound potency records, mixed from different reports. Data source: NIAID ChemDB in PubChem.

All rows: whole-cell or culture tests

ECn is the concentration giving n% inhibition of infection, replication or growth. Blank or dashed fields: not listed here. Inhibition is in % at the dose shown (toxicity tests: loss of growth or viability). Two numbers with a dash give a range or band. Conditions beyond the fields shown may differ between rows.

smiles,strain or isolate,dose,endpoint,species,cell line,read by,value
CCN1CCN(CCNC(=O)C[C@@]23CC[C@]4(C)[C@H](CC[C@@H]5[C@@]6(C)CC[C@H](OC(=O)[C@H]7C[C@@H](C(=O)O)C7(C)C)C(C)(C)[C@@H]6CC[C@]54C)C2=C(C(C)C)C(=O)C3)CC1,92HT599,,EC50,HIV-1,MT-2,p24 / ELISA,<1 µM
O=C1[C@@H](Cc2ccccc2)NC(=S)N1c1ccccc1,,10 µg/mL,inhibition,HIV-2,MT-4,RT activity,1%
Cc1nc(C)c(CNC(=O)C[C@@]23CC[C@]4(C)[C@H](CC[C@@H]5[C@@]6(C)CC[C@H](OC(=O)[C@H]7C[C@@H](C(=O)O)C7(C)C)C(C)(C)[C@@H]6CC[C@]54C)C2=C(C(C)C)C(=O)C3)s1,92HT599,,EC50,HIV-1,MT-2,p24 / ELISA,<1 µM
COc1ccc(S(=O)(=O)N(CC(C)C)CC(O)Cc2ccccc2C(=O)NC(C)(C)C)cc1,IIIB,,EC90,HIV-1,CEM,p24,1 µM
O=C(NCCc1ccccc1)Nc1cncc(Cl)n1,,100 µg/mL,inhibition,HIV-2,MT-4,cytopathic effect / XTT,26–100%
Cc1ccc(C)n1-c1ccc(C(=O)O)c(O)c1,SF162 R5 CLADE B,,EC90,HIV-1,PBMC/5.25M7,luciferase / cell fusion,69.65 µM
CC(C)C1=C2[C@H]3CC[C@@H]4[C@@]5(C)CC[C@H](OC(=O)[C@H]6C[C@@H](C(=O)O)C6(C)C)C(C)(C)[C@@H]5CC[C@@]4(C)[C@]3(C)CC[C@@]2([C@@H](O)CNCc2ccc(N)nc2)CC1=O,92HT599,,EC50,HIV-1,MT-2,p24 / ELISA,<1 µM
CC(=O)N1C(=O)[C@@H](Cc2ccccc2)NC1=S,,100 µg/mL,inhibition,HIV-2,MT-4,cytopathic effect / XTT,100%
CC(C)C1=C2[C@H]3CC[C@@H]4[C@@]5(C)CC[C@H](OC(=O)[C@H]6C[C@@H](C(=O)O)C6(C)C)C(C)(C)[C@@H]5CC[C@@]4(C)[C@]3(C)CC[C@@]2([C@@H](O)CNC(=O)c2ccc3nc(-c4ccccc4)[nH]c3c2)CC1=O,92HT599,,EC50,HIV-1,MT-2,p24 / ELISA,<1 µM
COc1ccc(S(=O)(=O)N(CC2CCCC2)C[C@@H](O)CN(CCc2ccccc2)C(=O)Cc2ccccc2)cc1,IIIB,,EC90,HIV-1,CEM,p24,1 µM
O=C1[C@@H](Cc2ccccc2)NC(=S)N1Cc1ccccc1,,10 µg/mL,inhibition,HIV-2,MT-4,cytopathic effect / XTT,100%
CC(C)CN(CC(O)Cc1nccn1S(=O)(=O)c1ccccc1)S(=O)(=O)c1ccccc1,IIIB,,EC90,HIV-1,CEM,p24,1 µM
O=C(NCCc1ccccc1)Nc1nc(C(F)(F)F)cs1,,10 µg/mL,inhibition,HIV-2,MT-4,cytopathic effect / XTT,38%
COc1ccc(S(=O)(=O)N(CC(C)C)C[C@@H](O)CCN(CC2CCCC2)S(=O)(=O)C2C(=O)CC(C)(C)SC2=O)cc1,IIIB,,EC90,HIV-1,CEM,p24,1 µM
CC(C)C1=C2[C@H]3CC[C@@H]4[C@@]5(C)CC[C@H](OC(=O)[C@H]6C[C@@H](C(=O)O)C6(C)C)C(C)(C)[C@@H]5CC[C@@]4(C)[C@]3(C)CC[C@@]2([C@@H](O)CNCC(C)(C)NC(=O)c2ccc(Cl)cc2OCCN2CCS(=O)(=O)CC2)CC1=O,92HT599,,EC50,HIV-1,MT-2,p24 / ELISA,<1 µM

Again, the opening 2 rows:

smiles,strain or isolate,dose,endpoint,species,cell line,read by,value
CCN1CCN(CCNC(=O)C[C@@]23CC[C@]4(C)[C@H](CC[C@@H]5[C@@]6(C)CC[C@H](OC(=O)[C@H]7C[C@@H](C(=O)O)C7(C)C)C(C)(C)[C@@H]6CC[C@]54C)C2=C(C(C)C)C(=O)C3)CC1,92HT599,,EC50,HIV-1,MT-2,p24 / ELISA,<1 µM
O=C1[C@@H](Cc2ccccc2)NC(=S)N1c1ccccc1,,10 µg/mL,inhibition,HIV-2,MT-4,RT activity,1%